{"source": "paper PMC12156181", "about": "“Antitrypanosomal and Antileishmanial Activities of Tacca leontopetaloides Tubers and Zanthoxylum zanthoxyloides Stem Bark” (Molecules, 2025)", "tested_on": "HEK 293 cells", "experiment": "toxicity assay on HEK 293 cells (Alamar Blue)", "conditions": "read-out: HEK 293 EC50", "note": "Where two headings read alike, the source gives them in different places."}
{"smiles": "O=[As]c1ccccc1", "note": "(centres unmarked)", "values": [{"measurement": "EC50", "setting": "a = EC50 of control for 1, 3, 4", "value": 0.17, "unit": "µM"}, {"measurement": "EC50", "setting": "b = EC50 of control for 5, 6, 7", "value": 0.048, "unit": "µM"}]}
